“Also recorded” adds a separate entry of the source. No end group written: not given here.
Tested on: Sprague Dowley rats
Assay: Auditory fear conditioning with microinfusion into the basolateral amygdala
Type: in vivo, rat
Conditions: 1 mM into BLA 10 min before training
Protocol: A. Animals: All procedures involving animals were in accordance to NIH guidelines and with approval of the bioethical committee of the Universidad Andrés Bello. Sprague Dowley rats (˜60 d old, ˜250 g) were caged individually at 22° C., 12/12 h light/dark cycle. The rats remained in their home box throughout the study, and were removed only briefly for drug microinfusion. B. Drugs: TAT-Cx43L2 ([…] (SEQ ID NO: 1), LifeTein, South Plainfield, N.J., USA, >90% purity) was dissolved in PBS to yield final solutions of 1 mM, 100 μM, 10 μM, 1 μM or 100 nM. Unless stated otherwise, the concentration used for microinfusions of TAT-Cx43L2 was 1 mM. As a control, TAT-Cx43L2^H126K/I130N was used at 1 mM. Gap27 (AnaSpec, Fremont, Calif., USA, >95% purity) and Gap27 scramble were dissolved to a final concentration of 1 mM. For the recovery cocktail, 100 mM glutamate (Sigma), D-serine (200 nM), glutamine (100 mM), ATP (100 μM), lactate (10 mM) and glycine (100 nM) were diluted in sterile saline. C. Apparatus: All behavioral essays were performed in a sound attenuating cubicle. Conditioning and tone testing were conducted in different chambers. For conditioning, rats were placed in a Plexiglas chamber with a metal grid floor (40 cm×40 cm×40 cm). The chamber was dimly illuminated by a red light. […]

## YGRKKRRQRRRDGANVDMHLKQIEIKKFKYGIEEHGK [TAT-Cx43L2, synthetic cell-permeable peptide corresponding to the Cx43L2 region (aa 119-144) of the cytoplasmic loop of Cx43]
  locomotion (transitions) before training: did not affect locomotion; also recorded: unaffected locomotion
  shock reactivity (escape velocity): did not affect shock reactivity; also recorded: normal reactivity to the shock
